Experimental data from US20060035242A1.
Like-named read-outs stand apart in the source and are kept apart here.

Assays:
[1] = molecular target: T1, mouse pathogenic prion protein PrP^Sc (RML, in infected Balb-c mouse brain homogenate) (mouse), P04925
[2] = molecular target: T1, mouse pathogenic prion protein PrP^Sc …; remark: listed apart in the source

## QWNKPSKPKTNGGGQWNKPSKPKTN [peptide reagent of SEQ ID NO:51 (tandem repeat)]
[1]
  ELISA A405 nm: 0.923 A405 nm

## QWNKPSKPKTNLKHVGGG [peptide reagent of SEQ ID NO:77]
[1]
  ELISA A405 nm: 0.839 A405 nm

## GGWGQGGGTHNQWNKPSKPKTN [peptide reagent of SEQ ID NO:53]
[1]
  ELISA A405 nm: 0.254 A405 nm

## GGTHNQWNKPSKPKTN [peptide reagent of SEQ ID NO:54]
[1]
  ELISA A405 nm: 0.253 A405 nm

## GGGAGAAAAGAVVGGLGGYMLGSAM [peptide reagent of SEQ ID NO:78]
[1]
  ELISA A405 nm: 0.259 A405 nm

## KKKAGAAAAGAVVGGLGGYMLGSAM [peptide reagent of SEQ ID NO:57]
[1]
  ELISA A405 nm: 0.901 A405 nm

## GGGKKRPKPGGWNTGGSRYPGQGS [peptide reagent of SEQ ID NO:66]
[1]
  ELISA A405 nm: 0.533 A405 nm

## GGGWNKPSKPKT [peptide reagent of SEQ ID NO:75]
[1]
  ELISA A405 nm: 0.247 A405 nm

## GGGKKRPKPGGGQWNKPSKPKTN [peptide reagent of SEQ ID NO:81]
[1]
  ELISA A405 nm: 1.25 A405 nm

## DDDAGAAAAGAVVGGLGGYMLGSAM [peptide reagent of SEQ ID NO:83]
[1]
  ELISA A405 nm: 0.237 A405 nm

## KKKAGAAAAGAVVGGLGGYMLGSAMKKK [peptide reagent of SEQ ID NO:84]
[1]
  ELISA A405 nm: 0.268 A405 nm

## DDDAGAAAAGAVVGGLGGYMLGSAMDDD [peptide reagent of SEQ ID NO:86]
[1]
  ELISA A405 nm: 0.227 A405 nm

## GGGQWNKPSKAKTN [peptide reagent of SEQ ID NO:91]
[1]
  ELISA A405 nm: 0.256 A405 nm
[2]
  ELISA A405 nm: 0.26 A405 nm

## GGGQWNAPSKPKTN [peptide reagent of SEQ ID NO:92]
[1]
  ELISA A405 nm: 0.23 A405 nm

## GGGQWNKPSAPKTN [peptide reagent of SEQ ID NO:93]
[1]
  ELISA A405 nm: 0.25 A405 nm
[2]
  ELISA A405 nm: 0.256 A405 nm

## GGGQWNKPSKPATN [peptide reagent of SEQ ID NO:94]
[1]
  ELISA A405 nm: 0.26 A405 nm
[2]
  ELISA A405 nm: 0.23 A405 nm

## GGGQWNKASKPKTN [peptide reagent of SEQ ID NO:99]
[2]
  ELISA A405 nm: 0.25 A405 nm

## GGGQWAKPSKPKTN [peptide reagent of SEQ ID NO:100]
[2]
  ELISA A405 nm: 0.376 A405 nm

## GGGQWNKPAKPKTN [peptide reagent of SEQ ID NO:101]
[2]
  ELISA A405 nm: 0.356 A405 nm

## GGGQWNKPSKPKAN [peptide reagent of SEQ ID NO:102]
[2]
  ELISA A405 nm: 0.234 A405 nm

## QWNKPSKPKTNGGG [peptide reagent of SEQ ID NO:50]
[1]
  ELISA A405 nm: 0.932 A405 nm
